Source: PMC6946549 (Biochemistry, 2019)

Key:
AUC = target: the molecule itself; assay: AUC
[1] = target: ChsH2 (chain beta of the ChsH1-ChsH2-Ltp2 complex) (Mycobacterium tuberculosis H37Rv); assay: SAXS

B1: ChsH1-ChsH2-Ltp2 protomer (alpha-beta-gamma) (complex)
chain 1: [about 120 residues omitted here]
chain 2: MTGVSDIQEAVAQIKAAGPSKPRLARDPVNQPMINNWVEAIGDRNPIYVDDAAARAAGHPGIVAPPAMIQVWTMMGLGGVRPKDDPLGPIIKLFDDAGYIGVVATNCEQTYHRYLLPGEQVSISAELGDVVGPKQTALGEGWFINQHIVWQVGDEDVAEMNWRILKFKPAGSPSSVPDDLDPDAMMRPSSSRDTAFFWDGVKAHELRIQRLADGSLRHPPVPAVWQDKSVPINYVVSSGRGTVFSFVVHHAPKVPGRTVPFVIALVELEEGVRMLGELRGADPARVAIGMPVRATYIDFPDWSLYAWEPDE
chain 3: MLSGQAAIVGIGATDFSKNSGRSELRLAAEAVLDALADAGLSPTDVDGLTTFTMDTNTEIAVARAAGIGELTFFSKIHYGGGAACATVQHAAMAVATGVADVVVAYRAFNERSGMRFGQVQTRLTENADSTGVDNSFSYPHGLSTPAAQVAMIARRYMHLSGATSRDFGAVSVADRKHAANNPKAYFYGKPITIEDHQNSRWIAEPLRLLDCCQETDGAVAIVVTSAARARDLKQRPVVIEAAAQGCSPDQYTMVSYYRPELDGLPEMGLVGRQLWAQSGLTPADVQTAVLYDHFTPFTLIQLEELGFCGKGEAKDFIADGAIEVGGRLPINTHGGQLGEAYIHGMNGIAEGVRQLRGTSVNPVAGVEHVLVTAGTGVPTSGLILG
stoichiometry N (AUC): 2

B2: ChsH1 (chain alpha of the ChsH1-ChsH2-Ltp2 complex) (enzyme)
chain: not shown
binding result [1]: binds
